PubChem BioAssay AID504761 – Drosophila RNAi Screening Center | 2011
In all, the deposit lists about 22,000 reagents; below is a random part of those that have a named target and a result. Of all reagents, 116 (0.52%) got an active call. 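Calls depend on retest data that are not deposited; infection was ranked per plate without normalising between plates; the unit of the infection score is not given.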 The numbers tell different reagents against one gene apart. A plus sign joins genes that one reagent is predicted to hit. Further read-outs or replicates are left out here. The record does not give: the amount of reagent, the time to read-out.

Test: 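Genome-wide fly cell screen for genes dengue virus requires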 (primary screen)
Cell system: D.Mel-2 cells from Drosophila
Reagent: long dsRNA against Drosophila genes
Challenge: infection with dengue virus type 2; dose and infection time not stated
Measured: 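Per well on two replicate plates, imaging gave the percent of cells positive for viral envelope protein, ranked by infection, and a nuclear count of cells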
Scale: infection score: higher = more virus-infected cells
Hit rule: 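Very low infection ranking in both replicate wells (chance probability at most 0.065), then a retest showing infection dropped 1.5-fold or more at p below 0.05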
Calls: active = confirmed: knock-down lowers infection; inactive = not picked or not confirmed

no.	Gene	reagent no.	infection score, replicate 1	infection score, replicate 2	Outcome
1	CG1552	1	8.64	6.41	inactive
2	CG1552	2	2.53	3.03	inactive
3	CG17646	1	5.02	3.03	inactive
4	mri	1	8.11	10.8	inactive
5	mri	2	7.47	11.5	inactive
6	CG1288	1	10.7	3.81	inactive
7	CG1288	2	6.46	6.52	inactive

Limited to “infection score, replicate 1” (3 entries from above):
mri #2: 7.47
CG1288 #1: 10.7
CG1288 #2: 6.46

Further results:
no.	Gene	reagent no.	infection score, replicate 1	infection score, replicate 2	Outcome
8	IM33	1	4.3	1.57	inactive
9	IM33	2	2.74	8.42	inactive
10	JMJD5	1	5.04	4.62	inactive
11	JMJD5	2	4.59	2.54	inactive
12	Cyp12d1-d + Cyp12d1-p	1	2.59	9.52	inactive
13	Cyp12d1-d + Cyp12d1-p	2	12.5	21.7	inactive
14	Ntan1	1	4.12	3.41	inactive
15	CheB53a	1	15.9	13.2	inactive
16	robl37BC	1	5.03	2.7	inactive
17	mia	1	7.29	9.04	inactive
18	PolD1	1	2.69	11	inactive
19	PolD1	2	5.71	19.3	inactive
20	CG32262	1	5.67	3.67	inactive
21	CG32262	2	2.32	23.2	inactive
22	PhKgamma	1	3.51	4.04	inactive
23	PhKgamma	2	10.1	5.74	inactive
